Test system: HIV-1 (strain IIIB)
Experiment: Anti-HIV-1 (strain IIIB) activity in MT-4 cells, MTT assay
Assay type: cell-based
Conditions: ratio CC50/EC50, MT-4 cells
Procedure: The anti-HIV-1 (strain IIIB) activity evaluation in MT-4 cells was conducted using an optimized MTT assay. The cell lines were obtained from the laboratory (Prof. Erik De Clercq, Rega Institute for Medical Research, KU Leuven, Herestraat 49, Leuven, Belgium). Compounds were serially diluted (5-fold increments, starting from 10× concentration) and dispensed into 96-well plates (25 µL/well) via an automated Biomek 3000 workstation (Beckman Instruments, Fullerton, CA, USA). Parallel experimental groups included virus-infected (50 µL HIV inoculum, 100–300 TCID50) and mock-infected controls (50 µL culture medium). MT-4 cells were centrifuged (220× g, 5 min), resuspended to 6 × 10⁵ cells/mL, and seeded (50 µL/well). After a 5-day incubation, cell viability was quantified by measuring mitochondrial dehydrogenase-mediated MTT-to-formazan conversion using dual-wavelength spectrophotometry (540 nm primary, 690 nm reference). The 50% cytotoxic concentration (CC50) was calculated from triplicate median absorbance values, representing the compound concentration reducing mock-infected cell viability by 50%.

| SMILES | SI, selectivity index |
| --- | --- |
| O=C1Nc2ccc(Cl)cc2[C@@](C#CC2CC2)(C(F)(F)F)O1 [EFV, reference compound] | >1538 |
| Cc1ccnc2c1NC(=O)c1cccnc1N2C1CC1 [NVP, reference compound] | >80 |
